Assay [1] has as its target T1, SARS-CoV-2 spike protein S1 subunit (WIV4) (SARS-CoV-2 (isolate 2019-nCoV, WIV4), UniProt P0DTC2 16-685).
T1 construct: also called SARS-CoV-2 S1 (WIV4); S1-HIS
Put plainly: phage ELISA on coated SARS-CoV-2 S1.

Assay [2] has as its target T1, SARS-CoV-2 spike protein S1 subunit …. The assay can be described thus: phage ELISA, specificity panel (FIG. 2). On the technique in general: In an ELISA, binding on a coated surface is turned into a signal by an enzyme label.

B1: phage clone #09 (scFv)
scFv: NFMLTQPHSVSESPGKTVSISCTGSSGSIASNYVQWYQQRPGSAPTTVIYEDKERPSGVPNRFSGSIDRSSNSASLTISGLKTEDEADYYCQSYDDGNVVFGGGTKLTVLGSRGGGGSGGGGSGGGGSLEMAEVQLVESGAEVKKPGASVKVSCKASGYTFTSYGISWVRQAPGQGLEWMGWISAYNGNTNYAQKFQDRVTLTTDTSTNTAYMLLRSLRSDDTAVYYCARTWYSYHYDIWGQGTLVTVSSTSGQAGQ
On to B1, for which the binding result in assay [1] is reported as “binds”.

B2: phage clone #15 (scFv)
scFv: QSVLTQPPSVSEAPRQRVTISCSGSSSNIGNNAVNWYQQLPGKAPKLLIYFNDVQSSGVSDRFSGSKSGTSASLAISGLQSEDEADYYCAAWDDSLNAVLFGGGTKLTVLGSRGGGGSGGGGSGGGGSLEMAEVQLVQSGAEVKKPGASVKVSCKASGYTFTGYYMHWVRQAPGQGLEWMGRINPNSGGTDYARKFRGRVTMTRDTSISTAYMELSRLTSDDTAMYYCARGYGDDWGQGTLVTVSSTSGQAGQ
As for B2, in assay [1], the binding result is given as “binds”.

B3: phage clone #19 (scFv)
scFv: QSALTQPASVSGSPGQSITISCTGTSSDVGGYNYVSWYQQHPGKVPKLMIYEVSNRPSGVSNRFSGSKSGNTASLTISGLQAEDEADYYCSSYTSGDTLVFGGGTKVTVLGSRGGGGSGGGGSGGGGSLEMAELQLVESGGGVVQPGRSPRLSCAASGFTFSNYPMHWVRQAPGKGLEWVAVISYDGNHKYYADSLEGRFSISRDNSKNTLYLQMNSLTAADTAVYYCARGGGMGGLDSWGQGTLVTVSSTSGQAGQ
As to B3, in assay [2], the binding result was “binds”.

B4: phage clone #20 (scFv)
scFv: SYVLTQPPSASGTPGQRVTISCSGSSSNIGSNTVNWYQQLPGTAPKLLIYSNNQRPSGVPDRFSASKSGTSASLAISGFQSEDEADYYCAAWDDSLDGYVFGTGTKVTVLGSRGGGGSGGGGSGGGGSLEMAEVQLVQSGAEVKKPGESLKISCKGSGYSFPSYWIGWVRQMPGKGLEWMGIIYPGDSDTRYSPSFQGQVTISADKSISTAYLQWSSLKASDTAMYYCARGSYTYMGGSYDYWGQGTLVTVSSTSGQAGQ
Take B4: in assay [2], the binding result was “binds”.

B5: phage clone #13 (scFv)
scFv: QSVLTQPPSASGTPGQRVTISCSGSSSNIGSNYVYWYQQLPGTAPKLLIYRNNQRPSGVPDRFSGSKSGTSASLAISGLRSEDEADYYCAAWDDSLSGPNYVFGTGTKVTVLGSRGGGGSGGGGSGGGGSLEMAQVQLVQSGAEVKKPGSSVKVSCKASGGTFSSYAISWVRQAPGQGLEWMGWISGYNGNTNYAQKLQGRVTMTTDTSTSTAYMELRSLRSDDTAVYYCARTGWSKGEKVTTWGEWFYVDYWGQGTLVTVSSTSGQAGQ
Consider B5, for which the binding result in assay [2] is recorded as “binds”.

B6: phage clone #30 (scFv)
scFv: QSALTQPPSASGSPGQSVTISCTGTSSDVGGYDYVSWYQQHPGKAPKLMIYEVSKRPSGVSNRFSGSKSGNTASLTISGLQAEDEADYYCSSYTSSSTFPYVFGTGTKVTVLGSRGGGGSGGGGSGGGGSLEMAEVQLVESGGGLEQPGGSLRLSCAASGFTFSSYAMSWVRQAPGKGLEWVSAISASGNSTFYADSVKGRFTISRDNSKHTLDLQMNSLRADDTAVYYCARNSDVWGQGTLVTVSSTSGQAGQ
As to B6, the binding result in assay [2] was “binds”.

The values above are taken from patent US20230141962A1 (published 2023).
